According to article PMC9460261, “Need for a Standardized Translational Drug Development Platform: Lessons Learned from the Repurposing of Drugs for COVID-19” (Microorganisms, 2022):

System: SARS-CoV-2 in Vero cells

ivermectin
Selectivity Index (Vero cells), With Pgp pump inhibitor: 5.4 | Selectivity Index (Vero cells), Without Pgp pump inhibitor: 2.6
